Source: PubChem BioAssay AID504761 (Drosophila RNAi Screening Center, 2011)

- Purpose: 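Genome-wide fly cell screen for genes dengue virus requires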 (primary screen)
- System: D.Mel-2 cells from Drosophila
- Knock-down reagent: long dsRNA against Drosophila genes
- Challenge: infection with dengue virus type 2; dose and infection time not stated
- Measurement: 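Per well on two replicate plates, imaging gave the percent of cells positive for viral envelope protein, ranked by infection, and a nuclear count of cells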
- Reading the numbers: infection score: higher = more virus-infected cells; cell count: higher = more cells in the well
- Rule for the call: 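Low infection ranks in the two replicates (chance level up to 0.065) followed by a retest with a 1.5-fold or larger significant decrease, p below 0.05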
- Calls: active = confirmed: knock-down lowers infection; inactive = not picked or not confirmed
In all, the deposit lists about 22,000 reagents; below is a random part of those with a known target gene and a result. Of all reagents, 116 (0.52%) got an active call. 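Calls depend on retest data that are not deposited; infection was ranked per plate without normalising between plates; the unit of the infection score is not given.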 The raw values are shown without normalisation. Unmarked entries are inactive. No sequences are given here. The record does not give: the amount of reagent, the time to read-out.

| infection score, replicate 1 | infection score, replicate 2 | cell count, replicate 1 | cell count, replicate 2 | target | amplicon |
| --- | --- | --- | --- | --- | --- |
| 2.84 | 12 | 739 | 6872 | CG2070 | DRSC06814 |
| 6.43 | 3.05 | 6328 | 6466 | l(2)SH0834 (lethal (2) SH0834) | DRSC02854 |
| 14.8 | 21.2 | 6890 | 1826 | CG30159 | DRSC04981 |
| 0.88 | 1.19 | 6217 | 6408 | CG30159 | DRSC26683 |
| 18.6 | 18.2 | 5606 | 4031 | dom (domino) | DRSC04558 |
| 12 | 24.8 | 5078 | 5125 | dom (domino) | DRSC04559 |
| 6.29 | – | 1128 | 340 | dom (domino) | DRSC29669 |
| 14.8 | 8.85 | 6277 | 6744 | HIPP1 (HP1 and insulator partner protein 1) | DRSC11748 |
| 14.2 | 6.17 | 6010 | 6776 | HIPP1 (HP1 and insulator partner protein 1) | DRSC27992 |
| 19.9 | 35.9 | 2675 | 5155 | dpr9 (defective proboscis extension response 9) | DRSC14534 |
| 8.22 | 16.7 | 5776 | 5739 | dpr9 (defective proboscis extension response 9) | DRSC14985 |
| 10.6 | – | 4697 | 272 | dpr9 (defective proboscis extension response 9) | DRSC14986 |
| 1.83 | 2.45 | 6572 | 6502 | dpr9 (defective proboscis extension response 9) | DRSC25267 |
| 0.4 | 1.68 | 5309 | 5666 | TfIIA-S (Transcription-factor-IIA-S) | DRSC16883 |
| 6.17 | 1.93 | 6673 | 6216 | CG4928 | DRSC19342 |
| – | 25.6 | 368 | 5268 | CG4928 | DRSC29007 |
| 4.54 | 4.43 | 6392 | 6659 | COX6AL (Cytochrome c oxidase subunit 6A-like) | DRSC21454 |
| 6.91 | 27.9 | 1895 | 3436 | Caf1-55 (Chromatin assembly factor 1, p55 subunit) | DRSC16596 |
| – | 11.8 | 402 | 4067 | krz (kurtz) | DRSC16979 |
| 15.2 | 25.7 | 6107 | 6213 | Ak6 (Adenylate kinase 6) | DRSC07274 |
| 4.99 | 3.01 | 6374 | 6379 | CG10949 | DRSC02112 |
| 21 | 1.62 | 6650 | 6037 | CG10949 | DRSC27310 |
| 3.73 | 17 | 6436 | 3640 | CG18469 | DRSC21838 |
| 1.67 | 1.49 | 5985 | 5567 | Zasp67 (Z band alternatively spliced PDZ-motif protein 67) | DRSC10169 |
| 5.25 | 3.33 | 6396 | 6818 | Zasp67 (Z band alternatively spliced PDZ-motif protein 67) | DRSC24457 |
| 13 | 6.52 | 5306 | 2148 | CG16926 | DRSC06637 |
| 2.25 | 5.55 | 6262 | 5878 | f (forked) | DRSC19174 |
| 19.4 | 2.99 | 4197 | 6590 | f (forked) | DRSC19516 |
| 0.6 | 5 | 6501 | 6516 | f (forked) | DRSC20331 |
| 2.25 | 4.76 | 6097 | 6025 | f (forked) | DRSC25251 |
| 15.5 | 13.3 | 5252 | 4504 | f (forked) | DRSC28735 |
| 13.2 | 6.32 | 6020 | 7023 | CG11155 | DRSC17205 |
| 15.5 | 9.42 | 3284 | 2006 | CG11155 | DRSC29324 |
| 5.37 | 8.42 | 6182 | 6742 | Erk7 (Extracellularly regulated kinase 7) | DRSC18127 |
| 6.23 | 18.7 | 6343 | 6233 | Erk7 (Extracellularly regulated kinase 7) | DRSC18227 |
| 12.8 | 38.9 | 7125 | 5144 | Erk7 (Extracellularly regulated kinase 7) | DRSC21895 |
| – | – | 384 | 392 | CG14811 | DRSC17962 |
| 3.19 | 1.39 | 6048 | 6755 | CG31600 | DRSC22541 |
| 4.89 | 10.4 | 6386 | 5677 | CG31600 | DRSC30096 |

Copied from above (3 entries):
| infection score, replicate 1 | infection score, replicate 2 | cell count, replicate 1 | cell count, replicate 2 | target | amplicon |
| --- | --- | --- | --- | --- | --- |
| 15.5 | 9.42 | 3284 | 2006 | CG11155 | DRSC29324 |
| 5.37 | 8.42 | 6182 | 6742 | Erk7 (Extracellularly regulated kinase 7) | DRSC18127 |
| 6.23 | 18.7 | 6343 | 6233 | Erk7 (Extracellularly regulated kinase 7) | DRSC18227 |
